Measured values from several laboratories, pooled; numbers as filed in NIAID ChemDB.

All rows: tests on isolated targets; species: Hepatitis C virus; target: Nonstructural protein 5B; read-out: IC50

ICn is the concentration giving n% inhibition. Rows are shuffled and stem from different studies. Two numbers with a dash give a range or band.

| structure | result |
|---|---|
| CC(C)COc1cc(C(=O)O)nn1CC(=O)N[C@H]1CCCC[C@@H]1OCC1CCCCC1 | >50 µM |
| O=C(O)CCN1C(=O)C(=Cc2ccc(-c3ccc4c(c3)OCO4)o2)SC1=S | ≤1 µM |
| O=C(Nc1ccc2cn[nH]c2c1)c1cc(NCCCn2ccnc2)c(F)cc1F | 0.1–1 µg/mL |
| CNC(=O)c1c(-c2ccc(F)cc2)oc2cc(N(C)S(C)(=O)=O)c(OCc3ccc4c(c3)C(=O)OC(C)(C)O4)cc12 | ≤0.5 µM |
| CC(C)CNc1cc(C(=O)Nc2ccc3cn[nH]c3c2)c(F)cc1F | >10 µg/mL |
| N[C@@H](CS)C(=O)N[C@@H](Cc1ccccc1)C(=O)N1CCC[C@H]1C(=O)N[C@@H](Cc1c[nH]c2ccccc12)C(=O)NCC(=O)N[C@@H](CS)C(=O)O | >150 µM |
| O=C(O)c1ccc(N2C(=O)C(=Cc3ccc(-c4c(F)c(F)nc(F)c4F)o3)SC2=S)cc1 | ≤1 µM |
| COc1ccc(CCC2(C3CCCC3)CC(=O)C(C(=O)Cc3cc(C)no3)C(=O)O2)cc1 | 10–50 µM |
| O=C(Nc1ccc2[nH]ncc2c1)c1cc(NCCCn2ccnc2)c(F)cc1F | 1–10 µg/mL |
| COc1nc(NCCO)nc(Nc2ccc3cn[nH]c3c2)n1 | 0.1–1 µg/mL |
| O=C(O)c1ccc(N2C(=O)C(=Cc3ccc(-c4cc5ccccc5o4)o3)SC2=S)cc1 | ≤1 µM |
| O=C(Nc1ccc2[nH]ncc2c1)c1cc(NCCc2ccccn2)c(F)cc1F | 1–10 µg/mL |
| O=C(O)c1ccc(N2C(=O)C(=Cc3ccc(-c4nccs4)o3)SC2=S)cc1 | ≤1 µM |
| CNC(=O)c1c(-c2ccc(F)cc2)oc2cc(-c3ncn[nH]3)c(OC(C)C)cc12 | ≤0.5 µM |
| O=C(O)c1ccc(-n2c(O)c(C=c3ccc(=C4N=C(Cl)C(Cl)=N4)o3)sc2=S)cc1 | ≤1 µM |
| CC(Cc1ccccn1)Nc1cc(C(=O)Nc2ccc3cn[nH]c3c2)c(F)cc1F | >10 µg/mL |
| COc1nc(Nc2ccc3cn[nH]c3c2)nc(N2CCCC2)n1 | 1–10 µg/mL |
| COc1ccc(CCC2(C3CCCC3)CC(O)=C(Sc3nc4ccccc4o3)C(=O)O2)cc1Cl | <1 µM |
| O=C(O)CCN1C(=O)C(=Cc2ccc(N3C=Cc4ccccc4C3)o2)SC1=S | ≤1 µM |
| CC(=O)C1C(=O)CC(CCc2cccc(Cl)c2)(C2CCCC2)OC1=O | 10–50 µM |
| CNC(=O)c1c(-c2ccc(F)cc2)oc2cc(N(Cc3ccc(OC)cc3)S(C)(=O)=O)c(OCc3ccc(OC)cc3)cc12 | ≤0.5 µM |
| Nc1ccn([C@H]2CO[C@@H](COP(=O)(O)OP(=O)(O)OP(=O)(O)O)O2)c(=O)n1 | 7.7 µM |
| CNC(=O)c1c(-c2ccc(F)cc2)oc2cc(-c3nccs3)c(OC(C)C)cc12 | ≤0.5 µM |
| COc1nc(NCCO)nc(Nc2ccc3[nH]ncc3c2)n1 | 1–10 µg/mL |
| O=C(Nc1ccc2cn[nH]c2c1)c1cc(NCCO)c(F)cc1F | 10 µg/mL |
| CNC(=O)c1c(-c2ccccc2)oc2cc(OC)c(OC)cc12 | ≤0.5 µM |
| COc1nc(Nc2ccc3[nH]ncc3c2)nc(NN2CCOCC2)n1 | 1–10 µg/mL |
| Nc1nc2cc(CNC(=O)Cn3nc(C(=O)O)cc3OCc3ccccc3-c3ccc(C(F)(F)F)cc3)ccc2s1 | >12.5 µM |
| O=C(Nc1ccc2cn[nH]c2c1)c1cc(NCCc2ccccn2)c(F)cc1F | 1–10 µg/mL |
| O=C1CC(CCc2ccccc2)(C2CCCC2)OC(=O)C1Cc1ccccc1 | 10–50 µM |
| O=C(O)C(=O)/C=C(\O)c1cccc(NS(=O)(=O)c2cc(Cl)c(Cl)cc2Cl)c1 | 0.63 µM |
| CCc1cc2c(C(=O)NC)c(-c3ccc(F)cc3)oc2cc1N(CCF)S(C)(=O)=O | ≤0.5 µM |
| Nc1nc(=O)n([C@@H]2CO[C@H](COP(=O)(O)OP(=O)(O)OP(=O)(O)O)O2)cc1F | 16 µM |
| O=C(O)c1ccc(N2C(=O)C(=Cc3ccc(C#Cc4ccccc4)o3)SC2=S)cc1 | ≤1 µM |
| COc1nc(Nc2ccc3cn[nH]c3c2)nc(NN2CCN(C)CC2)n1 | 1–10 µg/mL |
| CNC(=O)c1c(-c2ccc(F)cc2)oc2cc(N(C)S(C)(=O)=O)c(C(N)=O)c(OC)c12 | ≤0.5 µM |
| O=C(O)CCN1C(=O)C(=Cc2ccc(-c3cc(Cl)cc(Cl)c3)o2)SC1=S | ≤1 µM |
| COc1nc(Nc2ccc3[nH]ncc3c2)nc(N2CCC(C(N)=O)CC2)n1 | 1–10 µg/mL |
| CCN(CCO)c1cc(C(=O)Nc2ccc3cn[nH]c3c2)c(F)cc1F | >10 µg/mL |
| CNC(=O)C1(c2ccc(F)cc2)Cc2cc(OC)c(-c3nnco3)cc2O1 | ≤0.5 µM |
| COc1nc(Nc2ccc3[nH]ncc3c2)nc(NN2CCN(C)CC2)n1 | 1–10 µg/mL |

A second listing of 4 rows from above:

structure | result
O=C(Nc1ccc2[nH]ncc2c1)c1cc(NCCc2ccccn2)c(F)cc1F | 1–10 µg/mL
COc1nc(NCCO)nc(Nc2ccc3[nH]ncc3c2)n1 | 1–10 µg/mL
O=C(O)c1ccc(N2C(=O)C(=Cc3ccc(-c4c(F)c(F)nc(F)c4F)o3)SC2=S)cc1 | ≤1 µM
O=C(O)c1ccc(N2C(=O)C(=Cc3ccc(C#Cc4ccccc4)o3)SC2=S)cc1 | ≤1 µM